# Laboratory results taken from patent US20240122867A1, “CORONAL PROTEIN-COATED NANOPARTICLES AND USES THEREOF” (UNIVERSITY OF CENTRAL FLORIDA RESEARCH FOUNDATION, INC., priority 2021, published 2024).
# B1: Serum amyloid A-2 protein (protein, UniProt P05367 20-122, looked up)
# Serum amyloid A-2 protein: GFFSFIGEAFQGAGDMWRAYTDMKEAGWKDGDKYFHARGNYDAAQRGPGGVWAAEKISDARESFQEFFGRGHEDTMADQEANRHGRSGKDPNYYRPPGLPAKY
# B2: Plasma protease C1 inhibitor (protein, UniProt P97290 23-504, looked up)
# Plasma protease C1 inhibitor: DPEATSHSTQDPLEAQAKSRESFPERDDSWSPPEPTVLPSTWPTTSVAITITNDTMGKVANESFSQHSQPAAQLPTDSPGQPPLNSSSQPSTASDLPTQATTEPFCPEPLAQCSDSDRDSSEAKLSEALTDFSVKLYHAFSATKMAKTNMAFSPFSIASLLTQVLLGAGDSTKSNLESILSYPKDFACVHQALKGFSSKGVTSVSQIFHSPDLAIRDTYVNASQSLYGSSPRVLGPDSAANLELINTWVAENTNHKIRKLLDSLPSDTCLVLLNAVYLSAKWKITFEPKKMMAPFFYKNSMIKVPMMSSVKYPVAQFDDHTLKAKVGQLQLSHNLSFVIVVPVFPKHQLKDVEKALNPTVFKAIMKKLELSKFLPTYLTMPHIKVKSSQDMLSVMEKLEFFDFTYDLNLCGLTEDPDLQVSAMKHETVLELTESGVEAAAASAISFGRSLPIFEVQRPFLFLLWDQQHRFPVFMGRVYDPRG
# B3: Coagulation factor XII (protein, UniProt Q80YC5 20-354; Q80YC5 355-597, looked up)
# Coagulation factor XIIa heavy …: APPWKDSKKFKDAPDGPTVVLTVDGRLCHFPFQYHRQLHHKCIHKRRPGSRPWCATTPNFDEDQQWGYCLEPKKVKDHCSKHNPCHKGGTCINTPNGPHCLCPEHLTGKHCQKEKCFEPQLLKFFHENELWFRTGPGGVARCECKGSEAHCKPVASQACSINPCLNGGSCLLVEDHPLCRCPTGYTGYFCDLDLWATCYEGRGLSYRGQAGTTQSGAPCQRWTVEATYRNMTEKQALSWGLGHHAFCRNPDNDTRPWCFVWSGDRLSWDYCGLEQCQTPTFAPLVVPESQEESPSQAPSLSHAPNDSTDHQTSLSKTNTMGCGQRFRKGLSSFMR
# Coagulation factor XIIa light …: VVGGLVALPGSHPYIAALYWGNNFCAGSLIAPCWVLTAAHCLQNRPAPEELTVVLGQDRHNQSCEWCQTLAVRSYRLHEGFSSITYQHDLALLRLQESKTNSCAILSPHVQPVCLPSGAAPPSETVLCEVAGWGHQFEGAEEYSTFLQEAQVPFIALDRCSNSNVHGDAILPGMLCAGFLEGGTDACQGDSGGPLVCEEGTAEHQLTLRGVISWGSGCGDRNKPGVYTDVANYLAWIQKHIAS
# B4: Mannan-binding lectin serine protease 2 (protein, UniProt Q91WP0 20-685, looked up)
# Mannan-binding lectin serine …: SKWPEPVFGRLVSPGFPEKYADHQDRSWTLTAPPGYRLRLYFTHFDLELSYRCEYDFVKLSSGTKVLATLCGQESTDTEQAPGNDTFYSLGPSLKVTFHSDYSNEKPFTGFEAFYAAEDVDECRVSLGDSVPCDHYCHNYLGGYYCSCRAGYVLHQNKHTCSALCSGQVFTGRSGYLSSPEYPQPYPKLSSCTYSIRLEDGFSVILDFVESFDVETHPEAQCPYDSLKIQTDKGEHGPFCGKTLPPRIETDSHKVTITFATDESGNHTGWKIHYTSTARPCPDPTAPPNGSISPVQAIYVLKDRFSVFCKTGFELLQGSVPLKSFTAVCQKDGSWDRPMPECSIIDCGPPDDLPNGHVDYITGPEVTTYKAVIQYSCEETFYTMSSNGKYVCEADGFWTSSKGEKLPPVCEPVCGLSTHTIGGRIVGGQPAKPGDFPWQVLLLGQTTAAAGALIHDNWVLTAAHAVYEKRMAASSLNIRMGILKRLSPHYTQAWPEEIFIHEGYTHGAGFDNDIALIKLKNKVTINGSIMPVCLPRKEAASLMRTDFTGTVAGWGLTQKGLLARNLMFVDIPIADHQKCTAVYEKLYPGVRVSANMLCAGLETGGKDSCRGDSGGALVFLDNETQRWFVGGIVSWGSINCGAADQYGVYTKVINYIPWIENIISNF
# B5: Alpha-1-acid glycoprotein 2 (protein, UniProt P07361 19-207, looked up)
# Alpha-1-acid glycoprotein 2: QNPEHVNITIGDPITNETLSWLSDKWFFIGAAVLNPDYRQEIQKTQMVFFNLTPNLINDTMELREYHTIDDHCVYNSTHLGIQRENGTLSKYVGGVKIFADLIVLKMHGAFMLAFDLKDEKKRGLSLNAKRPDITPELREVFQKAVTHVGMDESEIIFVDWKKDRCSQQEKQQLELEKETKKDPEEGQA
# B6: Keratin, type II cytoskeletal 73 (protein, UniProt Q6NXH9 1-539, looked up)
# Keratin, type II cytoskeletal …: MNRQFTCKPGVANRGFSGCSAVLSGGSSSSYRAAGKGLSGGFSSRSLYSLRSPRSISFNVASSSGRTGGYGFGRNRASGFAGSMFGSGALGPSNPSLCLPGGIHQVTVNKSLLAPLNVELDPEIQKVRAQEREQIKALNNKFASFIDKVRFLEQQNQVLQTKWELLQQLDLSNCRRNLEPVYEAHISSLQKQLDSLSGDRVRLDSELRGMRDAVEDCKKRYEEEINKRTTAENEFVVLKKDVDAAYMSKVELQAKVDALDGEIKFLKCLYEGEITQMQSHISDTSVVLSMDNNRNLDLDSIIAEVRAQYEDIALKSKAEAEMVYQTKFQELQLAAGRHGDDLKHTRNEISELTRLIQRLRSEIESVKKQCSNLETAIADAEQRGDCALKDARAKLDELERALHQAKEELARMLREHQELMSMKLALDIEIATYRKLLEGEECRMSGEHTSAVSISVISSSAPGTVGAGTSFGFSSAGTYGYRQSSVAGGYGILSGGCVTGSGNCSPRGDTKNRLGSASEFKEVSGKTLALGSPSKKTMR
# B7: Keratin, type II cytoskeletal 2 oral (protein, UniProt Q3UV17 1-594, looked up)
# Keratin, type II cytoskeletal …: MSRQACKKSFSCGSQGFSGHSAVVSGSSRSSCVARSGAASGGACGFRSGAGSLGSHSLYSLGGSKSISISVAAGGSRAGGFSGGRSSCGSGFGSGYGGSLGGSRGMGAGFGGPSGFGGAGGFGRPGSFGPGSCPGGIQEVTINQSLLQPLNVEIDPQIGQVKAQEREQIKTLNNKFASFIDKVRFLEQQNKVLETKWELLQQQTIRSGSGPQNLEPFFESYISCLRKQLDSLLGAKGSLEGELKSMQDLVEDFKKKYEEEINRRTAAENEFVGLKKDVDGAFMNKVELQAKVDSLTDEINFLRTLYDMELSQIQSHVSDTSVVLSMDNNRCLDLDSIIAEVKAQYEDIAQKSKAEAEALYQTKLGELQTTAGRHGDDLRSTKSEIMDLNRMIQRLRAEIENVKKQNTNMQTSIAEAEQRGERALKDADTKFQDLQVALQKAKEDMARLLKEYQELMNVKLALDVEIATYRKLLEGEECRLSGEFQNAVSISVVSNVTSTSSSGSFRGTGGSNYGGDSSGRSGGSSSSSSRGSSSRGSSGSRLGSGGSISVSQQRMGFNSGGSQTSVGSSYKSGRGGSSSVQFSQTTSSSQQRSK
# B8: Apolipoprotein C-III (protein, UniProt P33622 21-99, looked up)
# Apolipoprotein C-III: EEVEGSLLLGSVQGYMEQASKTVQDALSSVQESDIAVVARGWMDNHFRFLKGYWSKFTDKFTGFWDSNPEDQPTPAIES
# Tested on: coronal proteins on NPs
# Set-up: species or system mouse
# Settings: HBPE-NPs incubated 1 h with IAV day 5 (V5) mouse sera, 20:1 NP:sera, centrifuged and washed
row,Molecule,V5 Sera_Nanoparticles Quantitative Value (Normalized Total Spectra)
1,B1,3.2638
2,B2,3.2638
3,B3,3.2638
4,B4,3.2638
5,B5,3.2638
6,B6,2.1758
7,B7,2.1758
8,B8,2.1758

# Same assay, conditions: IAV day 5 (V5) mouse sera alone, no NPs (sera-only control)
row,Molecule,V5 Sera Alone (Control) Quantitative Value (Normalized Total Spectra)
1,B1,12.953
2,B2,5.5514
3,B3,2.7757
4,B4,0.9252
5,B5,2.7757
6,B6,7.4018
7,B7,1.8505
8,B8,30.533
